Results of unrelated studies side by side (data: NIAID ChemDB).

Common to all: tests in culture; agent: Mycobacterium tuberculosis

Blank or dashed fields: not listed here. A number after MIC or MFC names an inhibition level or a share of isolates. Inhibition is in % at the dose shown (toxicity tests: loss of growth or viability). MIC bound: limit read from a one-dose screen. Lines come from different laboratories, so protocols vary. ECn is the concentration giving n% inhibition of infection, replication or growth.

structure | strain or isolate | cells | method | conditions | endpoint | dose | result
CCCCCc1cc(OC)c2ccccc2n1 | MT7 |  |  |  | MIC |  | 6.25 µg/mL
CCOC(=O)c1ccc2nc(-c3ccc(OC(F)(F)F)cc3)[nH]c2c1 | H37Rv |  | resazurin / fluorescence |  | EC50 |  | >100 µM
CCOC(=O)Nc1cc(NC(c2ccccc2)c2ccccc2)c([N+](=O)[O-])c(NC/C(C)=N/NC(=O)O)n1 | H37Rv |  |  |  | EC50 |  | >12.5 µg/mL
CCSCC(=O)Nc1cc(Cl)c(C)cc1O | H37Rv |  |  |  | MIC |  | 100 µg/mL
OC[C@@H](O)[C@@H](O)[C@H](O)C(/C=N/Nc1ccccc1)=N/Nc1ccccc1 | H37Rv |  | resazurin |  | MIC bound |  | >6.25 µg/mL
COc1cc(CO)ccc1O | H37Rv |  |  |  | MIC |  | 100 µg/mL
CC(=O)Nc1ccc(/C=N/NC(N)=S)cc1 | Isolate D (drug-resistant) |  |  |  | MIC |  | 20 µg/mL
Cc1ccc2oc(=S)n(-c3cccc(F)c3)c(=S)c2c1 | My 331/88 |  |  | 14 d | MIC |  | 4 µM
N#CCC(=O)c1cc2ccccc2cc1S(=O)(=O)Nc1ccc2cn[nH]c2c1 | H37Rv |  |  |  | MIC |  | >100 µg/mL
CN1C(=S)NC2C(O)C(O)C(CO)OC21 | H37Rv |  | resazurin |  | MIC bound |  | >6.25 µg/mL
O=[As](O)(O)c1ccc(Nc2nccs2)cc1 | H37Rv |  |  |  | MIC |  | >100 µg/mL
CCCCN(CCNC/C=C(\C)CCC=C(C)C)Cc1ccccc1 |  |  |  |  | MIC |  | 25 µM
Cc1ccc(-n2c(=O)oc3ccc(F)cc3c2=S)cc1 | My 331/88 |  |  | 21 d | MIC |  | 2 µM
CCCCC1=Nc2c(cc(NC(=O)OCC)nc2N)NC1C | H37Rv | VERO |  |  | EC50 |  | <12.5 µg/mL
CCOC(=O)c1ccc2c(c1)nc(-c1ccc(O)c(OC)c1)n2CCN1CCCC1=O | H37Rv |  | resazurin / fluorescence |  | EC50 |  | >100 µM
Nc1cccc2c(Cl)nccc12 | H37Rv |  |  |  | MIC |  | 25 µg/mL
NNC(=O)c1ccncc1 | MDR-3948 (MDR) |  |  |  | MIC |  | 3.2 µg/mL
CNC(C)c1cccs1.Cl | H37Rv |  |  |  | MIC |  | 100 µg/mL
CO[C@H]1/C=C/O[C@@]2(C)Oc3c(C)c(O)c4c(O)c(c5c(c4c3C2=O)NC2(CCN(CC(C)C)CC2)N=5)=NC(=O)/C(C)=C\C=C\[C@H](C)[C@H](O)[C@@H](C)[C@@H](O)[C@@H](C)[C@H](OC(C)=O)[C@@H]1C | MDR-22 (MDR) |  |  |  | MIC |  | 1.6 µg/mL
Cc1ccc2oc(=O)n(-c3ccc(Cl)c(Cl)c3)c(=S)c2c1 | My 331/88 |  |  | 21 d | MIC |  | 0.5 µM
OCc1cccs1 | H37Rv |  |  |  | MIC |  | >100 µg/mL
Cc1sc(/N=C/C2=C(O)CC(C)(C)CC2=O)nc1-c1ccccc1 | H37Rv |  | resazurin |  | inhibition | 6.25 µg/mL | -21%
CCOC(=O)Nc1cc(NCC(=O)CN(C)c2ccccc2)c([N+](=O)[O-])c(NC(=O)OCC)n1 | H37Rv |  |  |  | EC50 |  | >12.5 µg/mL
CO[C@H]1/C=C/O[C@@]2(C)Oc3c(C)c(O)c4c(=O)c(c5oc6cc(N7CCN(CC(C)C)CC7)cc(=O)c6nc5c4c3=C2O)NC(=O)/C(C)=C\C=C\[C@H](C)[C@H](O)[C@@H](C)[C@@H](O)[C@@H](C)[C@H](OC(C)=O)[C@@H]1C | 2983 (rifampin-sensitive) |  |  |  | MIC |  | 0.006 µg/mL
O=c1oc2ccc(F)cc2c(=O)n1-c1ccc(C(F)(F)F)cc1 | CNCTC MY331/88 |  |  |  | MIC |  | 2 µM
CC(C)c1ccc2c(c1)CC[C@H]1[C@](C)(CNCCNCCF)CCC[C@]21C |  |  |  |  | MIC |  | 25 µM
O=C(O)c1c2c3c(cccc3[nH]c1=O)C(=O)c1ccccc1-2 | H37Rv |  |  |  | MIC |  | 100 µg/mL
Cc1ccc2c(=O)n(-c3ccc(Cl)c(Cl)c3)c(=O)oc2c1 | CNCTC MY331/88 |  |  |  | MIC |  | 16 µM
CCN(CC)CCCSCCCN(CC)CC.Cl | H37Rv |  |  |  | MIC |  | >100 µg/mL
CN1CCN(C(=S)S)CC1 | H37Rv |  | resazurin |  | MIC |  | >6.25 µg/mL
CCCCCCCCCCCCCCCCCCNc1c2ccccc2nc2ccc(OC)cc12 | H37Rv |  |  |  | MIC |  | >100 µg/mL
O=C1CN(CCN2CC(=O)NC(=O)C2)CC(=O)N1 | H37Rv |  | BACTEC |  | MIC bound |  | >12.5 µg/mL
Cc1ccc2oc(=S)n(-c3ccc(Br)cc3)c(=S)c2c1 | My 331/88 |  |  | 21 d | MIC |  | 0.5 µM
O=C(O)c1cccc(C(=O)O)c1 | H37Rv |  |  |  | MIC |  | >100 µg/mL
Nc1c(/C=C/c2cc3cc(C4=NCCN4)ccc3o2)[nH]c2cc(C3=NCCN3)ccc12 | H37Rv |  | BACTEC |  | MIC |  | >128 µg/mL
NNC(=O)c1ccncc1 | PMH29:kasB |  |  |  | MIC |  | 0.025 µg/mL
CO[C@H]1/C=C/O[C@@]2(C)Oc3c(C)c(O)c4c(=O)c(c5oc6cc(N7CCN(C(C)C)CC7)cc(=O)c6nc5c4c3=C2O)NC(=O)/C(C)=C\C=C\[C@H](C)[C@H](O)[C@@H](C)[C@@H](O)[C@@H](C)[C@H](OC(C)=O)[C@@H]1C | 2219 (rifampin-resistant) |  |  |  | MIC |  | 0.2 µg/mL
OCc1ccccc1Sc1ccccc1CNCCNCC1(O)CCCCC1 |  |  |  |  | MIC |  | 50 µM
CC(C)N=c1cc2n(-c3ccc(Cl)cc3)c3ccccc3nc-2cc1Nc1ccc(Cl)cc1 | MDR4 |  | broth dilution / resazurin |  | MIC |  | 0.5 µg/mL
O=C1COc2ccc(F)cc2N1 | H37Rv |  | BACTEC |  | inhibition | 12.5 µg/mL | -8%
CCOC(=O)c1ccc2nc(-c3ccc(Cl)cc3)[nH]c2c1 | H37Rv |  | resazurin / fluorescence |  | MIC |  | >100 µM
CCOC(=O)Nc1cc(N[C@@H](C)[C@H](O)c2ccccc2)c([N+](=O)[O-])c(N)n1 | H37Rv |  |  |  | EC50 |  | >12.5 µg/mL
CCOC(=O)C(=CNc1cccc2cccnc12)C(=O)OCC | H37Rv |  |  |  | MIC |  | >100 µg/mL
CC1=C2C(=O)[C@H]3[C@@H](CC=C4C[C@@H](O)CC[C@@]43C)[C@@H]2CC[C@]12O[C@@H]1C[C@H](C)CN[C@H]1[C@H]2C | H37Rv |  | BACTEC |  | inhibition | 128 µg/mL | 98%
CCOC(=O)c1ccc2c(c1)nc(-c1ccc(N(C)C)cc1)n2CCN1CCCC1=O | H37Rv |  | resazurin / fluorescence |  | EC50 |  | >100 µM
COc1ccc(CNCCNCCc2ccccc2F)c(OC)c1 |  |  |  |  | MIC |  | 25 µM
COc1ccc2c(c1)[n+]([O-])c(-c1ccccc1)c(N)[n+]2[O-] | H37Rv |  | BACTEC |  | MIC bound |  | ≤12.5 µg/mL
c1ccc([C@H]2C[C@@H]2NCCNC2CCCCCCC2)cc1 |  |  |  |  | MIC |  | 25 µM
COc1cc(CCC(C)=O)ccc1OC(=O)c1c(-c2c(F)cccc2Cl)noc1C | H37Rv |  | resazurin |  | inhibition | 6.25 µg/mL | 2%
Cc1cc(-c2cc3c(cc2F)c(=O)c(C(=O)O)cn3C2CC2)cc(C)n1 | 126-4 |  |  |  | MIC |  | 4 µg/mL
CC(=O)Oc1c(C)c2c(O)c3c1C1=C(OCOC1=C(C)C3=O)/C(C)=C/[C@@](C)(O)[C@H](O)[C@@H](C)[C@@H](O)[C@H](C(=O)O)[C@H](O)[C@H](C)C(O)[C@H](C)/C=C\C=C(/C)C(=O)N2 | INH-r |  |  |  | MIC |  | 1.6 µg/mL
CCc1nc(N)nc(N)c1-c1ccc(Cl)cc1 | H37Rv |  | resazurin / fluorescence |  | EC90 |  | >100 µM
O=C(O)CNC(=O)CCl | H37Rv |  |  |  | MIC |  | >100 µg/mL
NNC(=O)C(=O)N/N=C(\CCC(=O)NCCc1ccccc1)CC(=O)c1ccccc1 | H37Rv |  | BACTEC |  | MIC bound |  | >12.5 µg/mL
CCOC(=O)c1ccc2nc(-c3ccccc3)[nH]c2c1 | H37Rv |  | resazurin / fluorescence |  | MIC |  | >100 µM
Clc1ccccc1CCNCCNC(c1ccccc1)c1ccccc1 |  |  |  |  | MIC |  | 50 µM
O=C(O)CCCc1nc2c(n1-c1ccccc1)C(=O)c1ccccc1C2=O | H37Rv |  | BACTEC |  | inhibition | 12.5 µg/mL | 0%
Cc1ccc(-n2c(=O)oc3ccc(C)cc3c2=S)cc1 | My 331/88 |  |  | 21 d | MIC |  | 1 µM
O=c1cncc[nH]1 | H37Rv |  | BACTEC |  | inhibition | 12.5 µg/mL | -9%
Cc1nc(C)c(C)[nH]1 | H37Rv |  |  |  | MIC |  | >100 µg/mL
C=CCNc1nc2c(s1)c1c(O)c3c(O)c(C)c4c(c32)C(=O)[C@@](C)(O/C=C/[C@H](OC)[C@@H](C)[C@@H](OC(C)=O)[C@H](C)[C@H](O)[C@H](C)[C@@H](O)[C@@H](C)/C=C/C=C(/C)C(=O)N1)O4 | H37Rv | VERO |  |  | MIC |  | 0.2 µg/mL
c1ccc(N=C(c2ccccc2)c2ccccc2)cc1 | H37Rv |  |  |  | MIC |  | >100 µg/mL
CCCCc1c(O)c(N=NC(N)=S)c2ccccc2c1O | H37Rv |  | BACTEC |  | inhibition | 12.5 µg/mL | 64%
CCOC(=O)c1ccc2nc(-c3ccc([N+](=O)[O-])cc3)[nH]c2c1 | H37Rv |  | resazurin / fluorescence |  | EC90 |  | >100 µM
CCCCCCCCCCCCCCCCNC(=O)c1cccnc1 | H37Rv |  |  |  | MIC |  | >100 µg/mL
CN[C@@H]1[C@H](O[C@H]2[C@H](O[C@H]3[C@H](O)[C@@H](O)[C@H](N=C(N)N)[C@@H](O)[C@@H]3N=C(N)N)O[C@@H](C)[C@]2(O)C=O)O[C@@H](CO)[C@H](O)[C@H]1O | TN4800 (W33) |  |  |  | MIC |  | >2 µg/mL
CCOC(=O)c1nc2cc(F)c(N3CCOCC3)cc2[nH]c1=O | H37Rv |  | resazurin |  | inhibition | 6.25 µg/mL | 39%
COc1ccc(CCc2cc(OC)c3ccccc3n2)cc1OC | MT5 |  |  |  | MIC |  | 25 µg/mL
C[C@@H]1CN(c2c(F)c(N)c3c(=O)c(C(=O)O)cn(C4CC4)c3c2F)C[C@H](C)N1 | MDR |  |  |  | MBC90 |  | 2 µg/mL
Cc1ccc(-n2c(=O)oc3ccc([N+](=O)[O-])cc3c2=O)cc1 | CNCTC MY331/88 |  |  |  | MIC |  | 62 µM
CCN=C(N)c1ccc([N+](=O)[O-])cc1O | H37Rv |  |  |  | MIC |  | >100 µg/mL
COc1cc(OC)c(C(=O)c2ccccc2N)c(OC)c1 | H37Rv |  | BACTEC |  | MIC |  | >4 µg/mL
CN1C(=O)Cc2ccccc21 | H37Rv |  |  |  | MIC |  | 100 µg/mL
C[N+](C)(C)CC(=O)N/N=C/c1oc(-c2cccc([N+](=O)[O-])c2)c(-c2cccc([N+](=O)[O-])c2)c1[N+](=O)[O-].[Cl-] | H37Rv |  | BACTEC |  | MIC bound |  | >12.5 µg/mL
CC1COc2c(N3CCN(C)CC3)c(F)cc3c(=O)c(C(=O)O)cn1c23 | Drug-resistant |  |  |  | MIC50 |  | 0.5 µg/mL
O=c1oc2ccc(Cl)cc2c(=O)n1-c1ccc(Cl)cc1 | CNCTC MY331/88 |  |  |  | MIC |  | 4 µM
NC1CCN(c2c(F)cc3c(=O)c(C(=O)O)cn(C4CC4)c3c2Cl)C1 | Drug-resistant |  |  |  | MBC90 |  | 1 µg/mL
CC(C)c1ccc2c(c1)CC[C@H]1[C@](C)(CNCCNCC(O)CO)CCC[C@]21C |  |  |  |  | MIC |  | 50 µM
Cc1ccc2oc(=S)n(-c3ccc(C(F)(F)F)cc3)c(=S)c2c1 | My 331/88 |  |  | 21 d | MIC |  | 8 µM
O=C(C[n+]1ccccc1)c1ccc(O)cc1O.[I-] | H37Rv |  |  |  | MIC |  | >100 µg/mL
CCOC(=O)Nc1cc(N)c2[nH]c(C)nc2n1 | H37Rv |  |  |  | inhibition | 12.5 µg/mL | 0%
Cl.Nc1ccc(NCCCCN2CCOCC2)nc1 | H37Rv |  |  |  | MIC |  | >100 µg/mL
O=C(c1ccc(Cl)cc1)c1cnc2nc(-c3ccccc3)c(-c3ccccc3)nn12 | H37Rv |  | BACTEC |  | inhibition | 12.5 µg/mL | 93%
NC(=O)c1cnccn1 | Isolate 11243 monodrug-resistant |  |  |  | MIC |  | >300 µg/mL
CC1CN(c2cc3c(cc2F)c(=O)c(C(=O)O)cn3-c2ccc(F)cc2F)CCN1 | MDR |  |  |  | MBC90 |  | >8 µg/mL
Cc1ccc(CNCCNCc2ccccc2F)cc1 |  |  |  |  | MIC |  | 50 µM
CCOC(=O)Nc1cc2c(c(N)n1)N=C(c1ccc(C)c(C)c1)CN2 | H37Rv |  |  |  | EC50 |  | <12.5 µg/mL
Fc1ccc2oc(=S)n(-c3ccc(Cl)c(Cl)c3)c(=S)c2c1 | My 331/88 |  |  | 21 d | MIC |  | 2 µM